This passage reports IC50, cell-cell fusion (HXB2 Env) results from patent publication US20070122429A1, “Designed antigens to elicit neutralizing antibodies against sterically restricted antigen and method of using same” (priority 2005, published 2007).

In this experiment the target is HIV-1 HXB2 Env (gp41 N-trimer region) (HIV-1 HXB2) (UniProt P04578). The experiment is described as follows: cell-based or functional assay.

“Ub-C37 (from UniProt P0CG48 1-76; P04578 625-661)” had an IC50, cell-cell fusion (HXB2 Env) of 4.7 nM.
